Our source for the Ki values is US20030235877A1, “Conjugates of haptens to beta-lactam derivatives and their use for detecting and/or quantifying haptens in solution and device for implementation thereof” (priority 1996, published 2003).

The chains behind the UniProt entries cited, without tags or fusion partners. Residues count along the entry.
UniProt P05364, 21-381 limits assumed: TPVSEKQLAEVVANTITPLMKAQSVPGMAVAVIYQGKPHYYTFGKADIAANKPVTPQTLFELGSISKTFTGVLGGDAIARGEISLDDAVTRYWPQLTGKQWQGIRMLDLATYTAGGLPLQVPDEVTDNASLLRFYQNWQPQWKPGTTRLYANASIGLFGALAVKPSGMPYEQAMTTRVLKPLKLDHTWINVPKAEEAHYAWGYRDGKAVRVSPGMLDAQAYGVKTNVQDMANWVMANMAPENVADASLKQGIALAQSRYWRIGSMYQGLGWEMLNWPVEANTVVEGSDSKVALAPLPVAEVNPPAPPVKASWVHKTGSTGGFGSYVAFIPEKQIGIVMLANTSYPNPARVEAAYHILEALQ

This experiment has as its target β-lactamase of Enterobacter cloacae P99 (Enterobacter cloacae, UniProt P05364). As to the kind of experiment: Ki of conjugates, calculated using the β-lactamase of Enterobacter cloacae P99. The format is biochemical. The text has this:
The particular mode of conjugation claimed in the present invention guarantees to maintain kinetic parameters (Km, Ki, kcat and Ka=k2/K, where Km is the enzyme Michaelis-Menten constant, Ki is the inhibitor-enzyme complex dissociation constant, kcat the catalytic constant and Ka the apparent second-order rate constant for acyl enzyme formation respectively) toward β-lactamases and penicillin detectors, which are essentially the same as those of common penicillins.
^x(Column 9): calculated using the β-lactamase of Enterobacter cloacae P99
In the case of `Cc1onc(-c2ccc(OCCC(=O)NCCCCC(=O)OC3CCC4C5CCC6=CC(=O)CCC6(C)C5CCC34C)cc2)c1C(=O)NC1C(=O)N2C1SC(C)(C)C2C(=O)O` (stereo not shown), the Ki (in general, a dissociation constant, usually derived from enzyme kinetics or from competition with a known ligand) is 23 nM.
For `Cc1onc(-c2ccc(OCCC(=O)NCCCCC(=O)OC3CCC4C5CCC6=CC(=O)CCC6C5CCC34C)cc2)c1C(=O)NC1C(=O)N2C1SC(C)(C)C2C(=O)O` (stereo not shown) the value was 29 nM; for `CC(=O)C1CCC2C3CCC4=CC(=O)CCC4(C)C3C(OCCC(=O)Nc3ccc(-c4noc(C)c4C(=O)NC4C(=O)N5C4SC(C)(C)C5C(=O)O)cc3)CC12C` (stereo not shown), 25 nM; for `COC(=O)C1C(OC(=O)c2ccc(CNC(=O)C(C(=O)NC3C(=O)N4C3SC(C)(C)C4C(=O)O)c3ccccc3)cc2)CC2CCC1N2C` (stereo not shown), 84 nM.
